## Deep mutational scan of the Zika virus protease

From the data files of Ni et al. 2025, doi:10.1038/s41467-025-63602-z.

Protein: NS2B and the protease part of NS3 of Zika virus strain MR766. Positions count along the chain below; NS2B spans 2-131 and NS3 starts at 132.
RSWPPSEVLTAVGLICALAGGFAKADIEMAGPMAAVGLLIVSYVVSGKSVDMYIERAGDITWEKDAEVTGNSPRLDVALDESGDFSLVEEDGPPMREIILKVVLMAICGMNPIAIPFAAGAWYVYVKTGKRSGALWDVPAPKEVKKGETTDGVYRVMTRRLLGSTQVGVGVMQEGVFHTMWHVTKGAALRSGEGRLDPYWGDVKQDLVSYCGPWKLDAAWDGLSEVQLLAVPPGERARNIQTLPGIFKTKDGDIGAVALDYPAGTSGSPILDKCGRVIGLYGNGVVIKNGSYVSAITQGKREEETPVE

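Libraries of single mutants were passaged as virus pools on Huh-7.5 cells. Deep sequencing gave the change in frequency of each mutant relative to wild type, averaged over three replicate libraries (two for positions 207-308). The study looked for pockets that tolerate few changes, as a guide for inhibitor design.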

The number is log2 of the effect relative to wild type; negative values mean reduced growth, higher values better tolerance. Substitutions are written as wild-type residue, site number, new residue. An asterisk is a stop codon; stop codons read about -7, near the floor of the assay. Values above 0 are not proof of better growth: six high scorers were tested one by one, five grew less well than wild type and one about as well. The authors count -1 or higher as tolerated. Position 1 is the last residue of NS2A. Positions 1-103, 104-206 and 207-308 were made and measured as separate libraries.

* S6A = -0.03
* V8Y = -4.16
* A19I = -4.93
* E28M = -3.31
* L39H = -4.52
* G47A = -6.64
* G47R = -6.16
* V50C = -0.44
* I54F = -5.58
* I54H = -6.33
* V77G = -7.59
* L79I = -1.11
* D80H = -6.27
* E90K = -3.61
* P93L = -1.97
* M95A = -2.62
* R96A = -4.05
* L104W = -6.87
* I107Y = -5.24
* N111L = -2.75
* I113A = -2.19
* G120C = -0.68
* T128M = -5.60
* K130A = -6.35
* D137S = -7.71
* P139D = -4.81
* V144Y = -3.38
* T165V = 0.66
* Q173S = -0.06
* H178* = -5.70
* V183N = -4.84
* L189S = -6.01
* K204A = -7.77
* R236Y = 1.45
* R238G = -1.05
* P244* = -6.57
* I246P = -5.98
* A256G = -6.56
* D260M = -4.27
* D260T = -5.36
* A263I = -5.52
* A263V = -6.99
* S268M = -4.08
* A295K = -5.22
* E304G = -0.22

Excerpt, the final 5 entries:

mutation,effect (log2)
A263I,-5.52
A263V,-6.99
S268M,-4.08
A295K,-5.22
E304G,-0.22